Assay results as given in patent publication US20220213151, “COMPOSITIONS AND METHODS FOR TREATMENT OF DISTENTABLE TISSUES” (published 2022).
Read-outs that look alike come from different tables or passages of the source.

Tests used:
[1] = molecular target: rhu EGFR (Fc), human (rhu), P00533 25-645
[2] = molecular target: rhu EGFR (Fc), human (rhu), P00533 25-645; test: SPR, captured rhuEGFR (~275 RU), single 300 nM injection; buffer: PBS P
[3] = molecular target: rhu EGFR (Fc), human (rhu), P00533 25-645; test: SPR, captured rhuEGFR (~275 RU), single 300 nM injection; buffer: PBS P pH 6.0
[4] = molecular target: rhu EGFR (Fc), human (rhu), P00533 25-645; test: SPR, captured rhuEGFR (~275 RU), single 300 nM injection; buffer: PBS P pH 7.4
[5] = molecular target: rhu EGFR (Fc), human (rhu), P00533 25-645; test: SPR, captured rhuEGFR (~275 RU), single 300 nM injection; buffer: PBS P pH 8.0

In the case of A-dmDT390-EGF-Kd+, the Kd [1] is reported as 0.275 nM, the koff [1] is reported as 6.95e-05 s⁻¹ and the kon [1] is reported as 252000 m^-1 s^-1. It also gave a Kd [2] of 0.076 nM, a koff [2] of 3.66e-05 s⁻¹ and a kon [2] of 479000 m^-1 s^-1. For the same substance, the Kd [3] was 1.28 nM, the koff [3] was 0.000351 s⁻¹ and the kon [3] was 273000 m^-1 s^-1. The Kd [4] was 0.076 nM, the koff [4] was 3.66e-05 s⁻¹ and the kon [4] was 479000 m^-1 s^-1. For the same substance, the Kd [5] was 0.07 nM, the koff [5] was 4.07e-05 s⁻¹ and the kon [5] was 581000 m^-1 s^-1.
